A mixed list of measured activities; the numbers were collected in NIAID ChemDB.

All rows: growth or infection tests; agent: Human cytomegalovirus; read-out: EC50

Blank or dashed fields: not listed here. Neighbouring rows are from separate reports. ECn is the concentration giving n% inhibition of infection, replication or growth. Two numbers with a dash give a range or band.

SMILES	strain or isolate	mutations	cell line	method	result
[O-][n+]1onc2ncnc(N3CC[N+]4(CC3)CC[N+]3(CCN(c5ncnc6no[n+]([O-])c56)CC3)CC4)c21	Clinical isolate	Ganciclovir-resistant	HELF	plaque count	0.15 µM
Nc1nc(=S)c2ncn([C@@H]3O[C@H](CO)[C@@H](O)[C@H]3O)c2[nH]1			WI-38	cytopathic effect	10 µg/mL
CC(C)(CO)C(=O)Nc1ccc(NS(=O)(=O)c2cccc3ccccc23)cc1	DAVIS		Human embryonic lung fibroblasts	cytopathic effect	0.66 µM
CCCCCCCC/C=C\CCCCCCCCOCCOP(=O)(O)CO[C@H](CO)Cn1ccc(N)nc1=O	C8914-6		HFF	plaque count	0.07 µM
O=C(NCc1ccc(Cl)cc1)c1c[nH]c2ccc(CCCO)cc2c1=O	GRU			plaque count	0.5 µM
CC(C)(CO)C(=O)Nc1ccc(NS(=O)(=O)c2cccc3c(N)cccc23)cc1	DAVIS		Human embryonic lung fibroblasts	cytopathic effect	0.71 µM
Nc1nc2c(ncn2CCC(CO)CO)c(=O)[nH]1			VERO	cytopathic effect	10–100 µM
CCCCCCCCCCCCCCCCOCCCOP(=O)(O)CO[C@H](CO)Cn1ccc(N)nc1=O	C9208/3-3-1		MRC-5	plaque count	0.001 µM
COc1nc(N)nc2c1ncn2C=C1CC1CO	AD169		HFF	cytopathic effect	1.5 µM
CC(C)(C)OC(=O)N(CCC(=O)Nc1ccc(-c2csc(N)n2)cc1)C1CCc2ccccc21	AD169		HS68	ELISA	7.5 µM
Cc1cc(Cl)ccc1NC(=O)Nc1cc(Br)cc(C2=NNC(=O)C2(C)C)c1			NHDF	cytopathic effect	2.1 µM
NC(=O)c1c(Cl)c(-c2cccnc2)n2c1CCCC2	Foscarnet-resistant		HEL	plaque count	0.12 µM
CC(C)(CF)C(=O)Nc1ccc(NS(=O)(=O)c2cccc3ccccc23)cc1	DAVIS		Human embryonic lung fibroblasts	cytopathic effect	0.098 µM
Cc1cc(Cl)ccc1NC(=O)Nc1cccc(-c2n[nH]c(=O)n2C(C)c2ccccc2)c1			NHDF	cytopathic effect	0.5 µM
Nc1nc(NC2CC2)c2ncn(C=C3CC3CO)c2n1	C8704/9-1-4		HFF	plaque count	1.7 µM
O[C@@H]1[C@H](O)[C@H](O)CO[C@H]1n1c(Br)nc2cc(Cl)c(Cl)cc21	TOWNE		HFF	plaque count	5.2 µM
Nc1nc2c(ncn2C[C@@H]2CC[C@@H](P(=O)(O)O)O2)c(=O)[nH]1	AD169		HS68	plaque count	0.09 µg/mL
Nc1ccn([C@H]2O[C@@H](CO)[C@H](O)[C@H]2O)c(=O)n1	WF1		FLOW 2002	plaque count	>100 µg/mL
CC(C)(C(=O)O)C(=O)Nc1ccc(NS(=O)(=O)c2cccc3c(N)cccc23)cc1	DAVIS		Human embryonic lung fibroblasts	cytopathic effect	27.4 µM
CCCCCCCCCCCCCCCCOP(=O)(O)CO[C@H](CO)Cn1ccc(N)nc1=O	GDGrP53		HFF	plaque count	0.06 µM
O=C1c2ccccc2C(=O)N1[C@H]1CC2CC3CC(C2)C1C3	AD169		HEL	plaque count	>20 µg/mL
Nc1nc2c(ncn2[C@@H]2CO[C@H](CO)[C@@H](O)C2)c(=O)[nH]1			VERO	cytopathic effect	1–10 µM
Nc1ncnc2c1ncn2C=C1CC1CO	AD169		KB	virus yield	<1 µM
CCCSc1ncnc2nc[nH]c12			WI-38	cytopathic effect	<32 µg/mL
Nc1nc2c(ncn2C=C2CC2CO)c(=O)[nH]1	EC		HFF	plaque count	5.1 µM
CC(C)c1ccc(NC(=O)N2CCC[C@H]2C(=O)N2CC[C@H]3[C@H]2[C@H](C)C(=O)N3C(=O)c2ccc([N+](=O)[O-])cc2)cc1	AD169		VERO	ELISA	>70 µM
Nc1nc(-c2ccc(NC(=O)CCN(Cc3ccccc3)C(=O)C3Cc4ccccc4C3)cc2)cs1	AD169		HS68	plaque count / crystal violet	20 µM
C=C1[C@H](CO)[C@@H](O)C[C@@H]1n1cnc2c(=O)[nH]c(N)nc21			WI-38	plaque count	80 µM
OC[C@@H]1O[C@H](n2c(Br)nc3cc(Cl)c(Cl)cc32)[C@@H](O)[C@H]1O	AD169		MRC-5	hybridisation	0.9 µM
Nc1nc2c(ncn2C=C2CC2CO)c(=O)[nH]1	RCdelta97.19			plaque count	9.6 µM
O=C1c2ccccc2C(=O)N1CCC1C2CC3CC(C2)CC1C3	AD169		HEL	plaque count	>100 µg/mL
Nc1nc(-c2ccc(NC(=O)CCN(Cc3cccc(F)c3)C(=O)c3ccccc3)cc2)cs1	AD169		HS68	ELISA	5.8 µM
NC12CC3CC(CC(C3)C1C(=O)c1ccccc1C(=O)O)C2	DAVIS		HEL	plaque count	>100 µg/mL
C=C1[C@H](n2ccc(N)nc2=O)O[C@H](CO)[C@H]1O	WF1		FLOW 2002	plaque count	0.04 µg/mL
Cn1c(N)nc2nc[nH]c2c1=S			WI-38	cytopathic effect	<32 µg/mL
CCCCCCCCCCCCCCCCCCOCCOP1(=O)CO[C@@H](Cn2ccc(N)nc2=O)CO1	C9208/5-4-2		MRC-5	plaque count	0.001 µM
Nc1ccn(C[C@@H](CO)OCP(=O)(O)O)c(=O)n1	AD169		HEL	hybridisation	0.05 µM
O=C(O)P(=O)(O)O	Acyclovir-resistant		HEL	plaque count	116.6 µM
O=C1c2ccccc2C(=O)N1CC1C2CC3CC(C2)CC1C3	DAVIS		HEL	plaque count	>20 µg/mL
CC(C)c1ccc(NC(=O)N2CCC[C@H]2C(=O)N2CC[C@H]3[C@H]2[C@H](C)C(=O)N3C(=O)c2nccs2)cc1	AD169		VERO	ELISA	>30 µM
Nc1nc2c(ncn2COC(CO)CO)c(=O)[nH]1	MAJOR		WI-38	plaque count	4.8 µM
Nc1nc(-c2ccc(NC(=O)CCN(C(=O)c3cccnc3)C3Cc4ccccc4C3)cc2)cs1	AD169		HS68	ELISA	37 µM
Nc1ncnc2c1ncn2C[C@@H](CO)OCP(=O)(O)O	AD169		HEL	flow cytometry	0.37 µM
Nc1ccn([C@@H]2O[C@H](CO)[C@@H](O)[C@@H]2O)c(=O)n1	WF1		FLOW 2002	plaque count	0.02 µg/mL
O=C(Nc1cccc(Cl)c1)Nc1cccc(-c2n[nH]c(=O)n2C2CCCCC2)c1			NHDF	cytopathic effect	0.3 µM
COc1cccc(N2CCN(C3=Nc4c(F)cccc4[C@H](CC(=O)O)N3c3cc(C(F)(F)F)ccc3OC)CC2)c1	Clinical isolate 15			plaque count	0.0029 µM
Nc1nc2c(ncn2COC(CO)CO)c(=O)[nH]1	TOWNE			ELISA	10 µM
Nc1ccn(C[C@@H](CO)OCP(=O)(O)O)c(=O)n1	AD169		HS68	plaque count	0.02 µg/mL
Nc1ccn([C@H]2O[C@@H](CO)[C@@H](O)[C@@H]2O)c(=O)n1	WF1		FLOW 2002	plaque count	100 µg/mL
CC#Cc1cn([C@H]2C[C@H](O)[C@@H](CO)O2)c(=O)[nH]c1=O			VERO	plaque count	>100 µM
Nc1nc2c(ncn2C=C2CC2CO)c(=O)[nH]1			VERO	cytopathic effect	1–10 µM
Cc1cc(Cl)ccc1NC(=O)Nc1cccc(C2=NNC(=O)C2(C)C)c1			NHDF	cytopathic effect	0.5 µM
Nc1nc2c(ncn2COC(CO)CO)c(=O)[nH]1	RCMP97 (drug-resistant)		HFF	plaque count	35 µM
Nc1ncnc2c1ncn2C[C@@H](CO)OCP(=O)(O)O			WI-38	plaque count	0.3 µM
Nc1nc2c(ncn2COC(CO)CO)c(=O)[nH]1	Recombinant C4 (D341E)			plaque count	2.5 µM
CCOC(=O)CN1N=C(c2cccc(NC(=O)Nc3ccc(Cl)cc3C)c2)C(C)(C)C1=O			NHDF	cytopathic effect	0.38 µM
O=C1c2ccccc2C(=O)N1C1C2CC3CC(C2)CC1C3	DAVIS		HEL	plaque count	>4 µg/mL
Cn1cnc([N+](=O)[O-])c1Sc1nc(N)nc2nc[nH]c12			WI-38	cytopathic effect	<10 µg/mL
Nc1ccn(C[C@@H](CO)OCP(=O)(O)O)c(=O)n1	HE		HELF	plaque count	0.49 µM
Nc1nc(-c2ccc(NC(=O)CN(CC3CCCCC3)C(=O)COc3ccccn3)cc2)cs1	AD169		HS68	plaque count / crystal violet	20 µM
CNc1cccc2c(S(=O)(=O)Nc3ccc(NC(=O)C(C)(C)CO)cc3)cccc12	DAVIS		Human embryonic lung fibroblasts	cytopathic effect	0.25 µM
CCCCCCCCCCCCOCCCOP(=O)(O)CO[C@H](CO)Cn1ccc(N)nc1=O	VR4955 (foscarnet-resistant)		HFF	plaque count	0.01 µM
CC(C)(C)OC(=O)[C@H](Cc1ccccc1)NC(=O)Nc1ccc(-c2csc(N)n2)cc1	AD169		HS68	plaque count / crystal violet	>103 µM
Nc1nc(N)c2ncn(C=C3CC3CO)c2n1	AD169		HFF	plaque count	15.9 µM
CC(C)(CCl)C(=O)Nc1ccc(NS(=O)(=O)c2cccc3ccccc23)cc1	DAVIS		Human embryonic lung fibroblasts	cytopathic effect	0.087 µM